Compound potency records, mixed from different reports. Data source: NIAID ChemDB in PubChem.

All rows: target-level tests

Lines come from different laboratories, so protocols vary. ICn: concentration for n% inhibition. An empty or dashed field is not shown. Two numbers with a dash give a range or band.

compound	strain or isolate	target	agent	method	endpoint	value
C=C1C(=O)O[C@H]2C1CC[C@@]1(C)C=CC(=O)C(=C)[C@H]21	D10	Lactase dehydrogenase	Plasmodium falciparum	LDH	IC50	1.611–2.115 µM
CCOC(=O)COc1cccc(-c2cc(Cl)cc(C3(C4CCC4)C(C#N)=C(N)Oc4n[nH]c(C)c43)c2)c1		Serine hydroxymethyltransferase	Plasmodium falciparum	absorbance	IC50	0.2 µM
Cc1ccc(/C=C/C(=O)NCCCCNc2ccnc3cc(Cl)ccc23)cc1	Recombinant	Falcipain-2 (FP2)	Plasmodium falciparum	fluorescence	IC50	>50 µM
CO[C@H](C(=O)NO)[C@@H](CC(C)C)C(=O)N[C@H](C(=O)OC1CCCC1)c1ccccc1		PfM17LAP	Plasmodium falciparum	fluorescence	Ki	0.075 µM
COc1cc(NC(C)CCCN)c2nccc(C)c2c1OCCCCc1ccccc1		Hematin	Plasmodium falciparum	nucleotide incorporation	IC50	700 µM
COc1ccc2c(c1)SC(C1CC1)C1=C(N2)c2ccccc2C1=O		NDH2	Plasmodium falciparum	fluorescence	IC50	>20 µM
O=C(/C=C/c1ccc([N+](=O)[O-])cc1)NCCCCNc1ccnc2cc(Cl)ccc12	Recombinant	Falcipain-2 (FP2)	Plasmodium falciparum	fluorescence	IC50	>50 µM
COc1cc(C)c2c(Oc3cccc(C(F)(F)F)c3)c(OC)cc(NC(C)CCCN)c2n1		Hematin	Plasmodium falciparum	nucleotide incorporation	IC50	16 µM
CN1CCC(NC2=CCC3=NC=C(c4cnn(-c5ncccn5)c4)[N+]3=N2)CC1		Calcium-dependent protein kinase 1	Plasmodium falciparum		IC50	0.331 µM
O=C(/C=C/c1ccc(Br)cc1)NCCCCNc1ccnc2cc(Cl)ccc12	Recombinant	Falcipain-2 (FP2)	Plasmodium falciparum	fluorescence	IC50	>50 µM
O=c1[nH]cnc2c1ncn2[C@@H]1CNC[C@@H]1OCP(=O)(O)O		Hypoxanthine-guanine-xanthine phosphoribosyltransferase	Plasmodium falciparum	absorbance	Ki	0.6 µM
Nc1nc2c(ncn2CCOCCP(=O)(O)O)c(=O)[nH]1		Hypoxanthine-guanine-xanthine phosphoribosyltransferase	Plasmodium falciparum	absorbance	Ki	0.1 µM
Nc1nc2c(ncn2CCOCP(=O)(O)O)c(=O)[nH]1		Hypoxanthine-guanine-xanthine phosphoribosyltransferase	Plasmodium falciparum	absorbance	Ki	1.6 µM
CN1CCC(NC2=CCC3=NC=C(c4cnn(-c5ccc(F)cc5)c4)[N+]3=N2)CC1		Calcium-dependent protein kinase 1	Plasmodium falciparum		IC50	0.013 µM
Nc1nc2c(ncn2[C@@H]2CNC[C@@H]2OCP(=O)(O)O)c(=O)[nH]1		Hypoxanthine-guanine-xanthine phosphoribosyltransferase	Plasmodium falciparum	absorbance	Ki	2 µM
O=C(c1ccc([N+](=O)[O-])o1)N1CCN(c2nc3c(Cl)cccc3s2)CC1		Thioredoxin reductase	Plasmodium berghei		IC50	5 µM
Cc1c(-c2ccc(-c3ccc(OC(C)(C)C)cc3)nc2)[nH]c2cc(F)ccc2c1=O	cytochrome bc1	Cytochrome bc1	Plasmodium falciparum		IC50	0.0268 µM
N#CCN(CCn1cnc2c(=O)[nH]c(N)nc21)CCP(=O)(O)O		Hypoxanthine-guanine phosphoribosyltransferase	Plasmodium vivax	absorbance	Ki	47 µM
Cc1[nH]nc2c1C(c1cc(Br)cc(C#N)c1)(C(C)C)C(C#N)=C(N)O2		Serine hydroxymethyltransferase	Plasmodium falciparum	absorbance	IC50	0.21 µM
O=C(/C=C/c1ccccc1[N+](=O)[O-])NCCCCNc1ccnc2cc(Cl)ccc12	Recombinant	Falcipain-2 (FP2)	Plasmodium falciparum	fluorescence	IC50	>50 µM
Cc1[nH]nc2c1C(c1cc(C#N)cc(-c3ccc(C(=O)O)cc3)c1)(C(C)C)C(C#N)=C(N)O2		Serine hydroxymethyltransferase	Plasmodium falciparum	absorbance	IC50	0.32 µM
O=C(/C=C/c1cccc(F)c1)NCCCCNc1ccnc2cc(Cl)ccc12	Recombinant	Falcipain-2 (FP2)	Plasmodium falciparum	fluorescence	IC50	>50 µM
COc1cc(C)c2c(OCc3cccc(C(F)(F)F)c3)c(OC)cc(NC(C)CCCN)c2n1		Hematin	Plasmodium falciparum	nucleotide incorporation	IC50	54 µM
COC(=O)c1ccc(-c2cc(Cl)cc(C3(C4CCC4)C(C#N)=C(N)Oc4n[nH]c(C)c43)c2)cc1		Serine hydroxymethyltransferase	Plasmodium falciparum	absorbance	IC50	0.21 µM
O=C(/C=C/c1ccc(Cl)cc1)NCCCCNc1ccnc2cc(Cl)ccc12	Recombinant	Falcipain-2 (FP2)	Plasmodium falciparum	fluorescence	IC50	>50 µM
CN1CCC(NC2=CCC3=NC=C(c4cnn(-c5ncccc5F)c4)[N+]3=N2)CC1		Calcium-dependent protein kinase 1	Plasmodium falciparum		IC50	0.239 µM
O=c1c(-c2ccc(Oc3ccc(OC(F)(F)F)cc3)cc2)c(CO)[nH]c2ccccc12	3D7	PfNDH2	Plasmodium falciparum	FRET	IC50	>0.056 µM

4 of the rows above, restated:

compound	strain or isolate	target	agent	method	endpoint	value
Nc1nc2c(ncn2CCOCCP(=O)(O)O)c(=O)[nH]1		Hypoxanthine-guanine-xanthine phosphoribosyltransferase	Plasmodium falciparum	absorbance	Ki	0.1 µM
Cc1c(-c2ccc(-c3ccc(OC(C)(C)C)cc3)nc2)[nH]c2cc(F)ccc2c1=O	cytochrome bc1	Cytochrome bc1	Plasmodium falciparum		IC50	0.0268 µM
O=C(/C=C/c1cccc(F)c1)NCCCCNc1ccnc2cc(Cl)ccc12	Recombinant	Falcipain-2 (FP2)	Plasmodium falciparum	fluorescence	IC50	>50 µM
CN1CCC(NC2=CCC3=NC=C(c4cnn(-c5ncccc5F)c4)[N+]3=N2)CC1		Calcium-dependent protein kinase 1	Plasmodium falciparum		IC50	0.239 µM